Earlier results in article PMC4413526 (2014).

Details: 800/100 mg once daily, antiretroviral-naïve patients; cited from earlier work

darunavir/ritonavir
Darunavir AUC24h, mean [SD]: 93,026 [27,050] ng•h/ml | Darunavir C0h, mean [SD]: 2282 [1168] ng/ml
